Assay results taken from article PMC9603373 (Microbiology Spectrum, 2022).

Tests used:
[1] = tested on: daptomycin-susceptible, dose-dependent Enterococcus faecium (NTUH664); experiment: Rat infective endocarditis model, DSE; conditions: MIC 0.5, group value repeated per rat; for auc_mic: AUC0–24/MIC; for cmax_mic: Cmax/MIC;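 as to all read-outs here: male Wistar rats with catheter-induced aortic valve endocarditis, dosed for 3 days, CFU counted in vegetation and blood, saline-treated infected controls, vegetation detection limit 2 log10 CFU/g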
[2] = tested on: daptomycin nonsusceptible Enterococcus faecium (NTUH688); experiment: Rat infective endocarditis model, DNSE; type: in vivo; conditions: MIC 8, group value repeated per rat; for auc_mic: AUC0–24/MIC; for cmax_mic: Cmax/MIC;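 as to all read-outs here: Catheter-induced aortic valve endocarditis in male Wistar rats, treated 3 days, bacteria counted by plating vegetation and blood homogenates on brain heart infusion agar, control rats given phosphate-buffered saline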

CCCCCCCCCC(=O)N[C@@H](Cc1c[nH]c2ccccc12)C(=O)N[C@H](CC(N)=O)C(=O)N[C@@H](CC(=O)O)C(=O)N[C@@H]1C(=O)NCC(=O)N[C@@H](CCCN)C(=O)N[C@@H](CC(=O)O)C(=O)N[C@H](C)C(=O)N[C@@H](CC(=O)O)C(=O)NCC(=O)N[C@H](CO)C(=O)N[C@@H]([C@H](C)CC(=O)O)C(=O)N[C@@H](CC(=O)c2ccccc2N)C(=O)O[C@@H]1C [daptomycin, Daptomycin]
auc_mic ([1]; 12 mg/kg iv): 228
auc_mic ([1]; 45 mg/kg sc): 987
auc_mic ([1]; 90 mg/kg sc): 2054
cmax_mic ([1]; 12 mg/kg iv): 106
cmax_mic ([1]; 45 mg/kg sc): 123
cmax_mic ([1]; 90 mg/kg sc): 179
auc_mic ([2]; 45 mg/kg sc): 123
auc_mic ([2]; 90 mg/kg sc): 257
cmax_mic ([2]; 45 mg/kg sc): 15
cmax_mic ([2]; 90 mg/kg sc): 22
